Measured values from several laboratories, pooled; numbers as filed in NIAID ChemDB.

Common to all: tests in culture; organism: Hepatitis C virus; measure: inhibition

Percent inhibition refers to the dose given; in toxicity tests it is the harm to the cells.

compound	strain	changes	conditions	cell line	method	dose	result
CC#COCN1CCC(C(=O)Nc2cccc(-c3cc4ccccc4[nH]3)c2)CC1	JFH-1	-	-	Huh7	PCR	5 µM	≥40%
CC1(C)CC[C@@]2(C(=O)NCc3cn(Cc4ccccc4)nn3)C(C1)C1=CCC3[C@@]4(C)CC[C@H](O)C(C)(C)C4CC[C@@]3(C)[C@]1(C)C[C@H]2O	-	-	-	Huh7	luciferase / entry	1 µM	2.2%
COc1cccc(-c2ccccc2NC(=O)C2CCN(Cc3c(C)cccc3C)CC2)c1	JFH-1	-	-	Huh7	PCR	15 µM	≥40%
N#Cc1c(SCc2ccncc2)sc2c(=O)[nH]c(=O)[nH]c12	GT2a	-	-	Huh7.5	luciferase / reporter gene	50 µM	31%
COc1nc(N)nc2c1ncn2[C@@H]1O[C@H](COP(=O)(N[C@@H](C)C(=O)OC(C)C)Oc2ccccc2)[C@@H](O)[C@@]1(C)F	JFH-1	-	-	-	-	0.0112 µM	90%
COc1cccc(CN2CCC(C(=O)Nc3ccc(Oc4ccccc4F)cc3)CC2)c1	JFH-1	-	-	Huh7	PCR	15 µM	≥40%
O=c1[nH]cnc2c1sc(=S)n2Cc1ccccc1	GT1b	-	-	Huh7	luciferase / reporter gene	50 µM	23%
O=C(O[C@@H]1Cc2c(O)cc(O)cc2O[C@@H]1c1ccc(O)c(O)c1)c1cc(O)c(O)c(O)c1	1a	-	-	-	luciferase	50 µM	40%
O=C(Nc1cccnc1Oc1ccccc1)C1CCN(Cc2ccccc2)CC1	JFH-1	-	-	Huh7	PCR	5 µM	≥40%
CC1(C)CC[C@@]2(C(=O)NCCn3cc(CN(Cc4cn(C(C)(C)C)nn4)Cc4cn(C(C)(C)C)nn4)nn3)C(C1)C1=CCC3[C@@]4(C)CC[C@H](O)C(C)(C)C4CC[C@@]3(C)[C@]1(C)C[C@H]2O	-	-	-	Huh7	luciferase / entry	5 µM	57.9%
O=C(O)CCn1ncc2c(=O)[nH]cnc21	GT1b	-	-	Huh7	luciferase / reporter gene	50 µM	51%
COc1cc([C@H]2O[C@@H](c3cc(OC)c4c(c3)OCO4)[C@@H](C)[C@@H]2C)cc2c1OCO2	Subgenomic replicon S52	P1220S D1430H S2204I	-	Huh7.5	luciferase	25 µM	86%
Cn1c(=O)c2c(ncn2C)n(C)c1=O	J6/JFH	-	-	Huh7.5	luciferase / replicon	2000 µM	79.3%
CC(=O)c1ccc(NC(=O)C2=c3nc(C)[nH]c(=O)c3=NC2)cc1	GT2a	-	-	Huh7.5	luciferase / reporter gene	50 µM	0%
Cc1cc(Cn2cc(CNC(=O)[C@]34CCC(C)(C)CC3C3=CCC5[C@@]6(C)CC[C@H](O)C(C)(C)C6CC[C@@]5(C)[C@]3(C)C[C@H]4O)nn2)c(C)cc1Cn1cc(CNC(=O)[C@]23CCC(C)(C)CC2C2=CCC4[C@@]5(C)CC[C@H](O)C(C)(C)C5CC[C@@]4(C)[C@]2(C)C[C@H]3O)nn1	-	-	-	Huh7	luciferase / entry	5 µM	81.3%
C[C@H]1[C@H](C)CC[C@]2(C(=O)O)CC[C@]3(C)C(=CC[C@@H]4[C@@]5(C)CC[C@H](O)C(C)(C)[C@@H]5CC[C@]43C)[C@H]12	-	-	-	Huh7	luciferase / entry	1 µM	13.8%
COc1ccc(Nc2nc3ccc(C)cc3s2)c(OC)c1	-	-	-	Huh7	luciferase	20 µM	21%
C=C(C)[C@@H]1CC[C@]2(C(=O)O)CC[C@]3(C)[C@H](CC[C@@H]4[C@@]5(C)CC[C@H](O)C(C)(C)[C@@H]5CC[C@]43C)[C@@H]12	-	-	pseudotyped	Huh7	luciferase / entry	1 µM	-2%
CCn1cc(CN2CCC(C(=O)Nc3ccc(Oc4ccccc4F)cc3)CC2)cn1	JFH-1	-	-	Huh7	PCR	5 µM	≥40%
Cc1ccc2nc(Nc3ccc([N+](=O)[O-])cc3)sc2c1	-	-	-	Huh7	luciferase	5 µM	12%
CC(=O)OC[C@]12[C@H](OC(C)=O)[C@H](OCc3ccccc3)[C@@H]3[C@@H](OC(C)=O)[C@@]14O[C@@]3(C)COC(=O)c1cccnc1C(C)C(C)C(=O)O[C@@H]([C@H](OC(C)=O)[C@@H]2OC(C)=O)[C@]4(C)O	Subgenomic replicon JFH-1	-	-	Huh7.5	luciferase	50 µM	100%
Cc1cc(C)cc(Nc2nc3ccc(C)cc3s2)c1	-	-	-	Huh7	luciferase	20 µM	85%
CC1(C)CC[C@@]2(C(=O)NCc3cn(CC(Cn4cc(CNC(=O)[C@]56CCC(C)(C)CC5C5=CCC7[C@@]8(C)CC[C@H](O)C(C)(C)C8CC[C@@]7(C)[C@]5(C)C[C@H]6O)nn4)(Cn4cc(CNC(=O)[C@]56CCC(C)(C)CC5C5=CCC7[C@@]8(C)CC[C@H](O)C(C)(C)C8CC[C@@]7(C)[C@]5(C)C[C@H]6O)nn4)Cn4cc[n+](CNC(=O)[C@]56CCC(C)(C)CC5C5=CCC7[C@@]8(C)CC[C@H](O)C(C)(C)C8CC[C@@]7(C)[C@]5(C)C[C@H]6O)n4)nn3)C(C1)C1=CCC3[C@@]4(C)CC[C@H](O)C(C)(C)C4CC[C@@]3(C)[C@]1(C)C[C@H]2O	-	-	-	Huh7	luciferase / entry	1 µM	22.8%
COc1nc(N)nc2c1ncn2[C@@H]1O[C@H](COP(=O)(N[C@@H](C)C(=O)OCC(C)(C)C)Oc2cccc3ccccc23)[C@@H](O)[C@@]1(C)O	1a	-	24 h	Huh7	PCR	0.042 µM	90%
CC1(C)CC[C@@]2(C(=O)NCc3cn(CC(CO)(Cn4cc(CNC(=O)[C@]56CCC(C)(C)CC5C5=CCC7[C@@]8(C)CC[C@H](O)C(C)(C)C8CC[C@@]7(C)[C@]5(C)C[C@H]6O)nn4)Cn4cc[n+](CNC(=O)[C@]56CCC(C)(C)CC5C5=CCC7[C@@]8(C)CC[C@H](O)C(C)(C)C8CC[C@@]7(C)[C@]5(C)C[C@H]6O)n4)nn3)C(C1)C1=CCC3[C@@]4(C)CC[C@H](O)C(C)(C)C4CC[C@@]3(C)[C@]1(C)C[C@H]2O	-	-	-	Huh7	luciferase / entry	1 µM	45.4%
Cc1ccc2nc(Nc3cccc(Cl)c3)sc2c1	-	-	-	Huh7	luciferase	5 µM	14%
COc1cccc(C)c1CN1CCC(C(=O)Nc2cccc(-c3cccc(F)c3)c2)CC1	JFH-1	-	-	Huh7	PCR	15 µM	≥40%
CCCn1cc(CNC(=O)[C@]23CCC(C)(C)CC2C2=CCC4[C@@]5(C)CC[C@H](O)C(C)(C)C5CC[C@@]4(C)[C@]2(C)C[C@H]3O)nn1	-	-	-	Huh7	luciferase / entry	1 µM	2.2%
COc1cccc(CN2CCC(C(=O)Nc3ccccc3-c3cccc(OC)c3)CC2)c1	JFH-1	-	-	Huh7	PCR	15 µM	≥40%
Cc1ccc2nc(Nc3cc(O)cc([N+](=O)[O-])c3)sc2c1	-	-	-	Huh7	luciferase	5 µM	23%

A second listing of 4 rows from above:

compound,strain,changes,conditions,cell line,method,dose,result
O=c1[nH]cnc2c1sc(=S)n2Cc1ccccc1,GT1b,-,-,Huh7,luciferase / reporter gene,50 µM,23%
CCCn1cc(CNC(=O)[C@]23CCC(C)(C)CC2C2=CCC4[C@@]5(C)CC[C@H](O)C(C)(C)C5CC[C@@]4(C)[C@]2(C)C[C@H]3O)nn1,-,-,-,Huh7,luciferase / entry,1 µM,2.2%
C[C@H]1[C@H](C)CC[C@]2(C(=O)O)CC[C@]3(C)C(=CC[C@@H]4[C@@]5(C)CC[C@H](O)C(C)(C)[C@@H]5CC[C@]43C)[C@H]12,-,-,-,Huh7,luciferase / entry,1 µM,13.8%
CC#COCN1CCC(C(=O)Nc2cccc(-c3cc4ccccc4[nH]3)c2)CC1,JFH-1,-,-,Huh7,PCR,5 µM,≥40%

Rows are shuffled and stem from different studies. Blank or dashed fields: not listed here.